Source: US6746623B2, “Alkyl glycidyl ether-capped diamine foam controlling agent” (Air Products and Chemicals, Inc., priority 2002, dated 2004)

System: biomass seed from an Easton Pa. wastewater treatment plant
Test: Carbonaceous Biological Oxygen Demand (CBOD) biodegradation test at 28 days
Settings: CBOD/COD x 100, 28 days

With `CCCCOCC(O)CN(CCCCCCN(CC(O)COCCCC)CC(O)COCCCC)CC(O)COCCCC` (centres unmarked) [HDA/4 BGE] the “Percent Biodegradation at 28 days, Trial 1” value was 0% and the “Percent Biodegradation at 28 days, Trial 2” value was 0%.

With `CCCCOCC(O)CN(CCN(CC(O)COCCCC)CC(O)COCCCC)CC(O)COCCCC` (centres unmarked) [EDA/4 BGE] the “Percent Biodegradation at 28 days, Trial 1” value was 0% and the “Percent Biodegradation at 28 days, Trial 2” value was 67%.

With `CCCCOCC(O)CN(CCN(CC(O)COCCCC)CC(O)COCCCC)CCN(CC(O)COCCCC)CC(O)COCCCC` (centres unmarked) [DETA/5 BGE, reference compound] the “Percent Biodegradation at 28 days, Trial 1” value was 0% and the “Percent Biodegradation at 28 days, Trial 2” value was 0%.

With `CCCCOCC(O)CNCCN` (racemic) [EDA/1 BGE] the “Percent Biodegradation at 28 days, Trial 1” value was 0% and the “Percent Biodegradation at 28 days, Trial 2” value was 66%.

With `CCCCOCC(O)CNCCCCCCN` (racemic) [HDA/1 BGE] the “Percent Biodegradation at 28 days, Trial 1” value was 65% and the “Percent Biodegradation at 28 days, Trial 2” value was 38%.

With `CCCCOCC(O)CNCCN(CC(O)COCCCC)CC(O)COCCCC` (centres unmarked) [EDA/3 BGE] the “Percent Biodegradation at 28 days, Trial 1” value was 0% and the “Percent Biodegradation at 28 days, Trial 2” value was 50%.

`CCCCOCC(O)CNCCCCCCN(CC(O)COCCCC)CC(O)COCCCC` (centres unmarked) [HDA/3 BGE] was tested, and the “Percent Biodegradation at 28 days, Trial 1” value was 0% and the “Percent Biodegradation at 28 days, Trial 2” value was 100%.
